Results of unrelated studies side by side (data: NIAID ChemDB).

Common to all: target-level tests; organism: HIV-1; target: Protease

ICn: concentration for n% inhibition.

| SMILES | strain or isolate | method | read-out | setting | value |
|---|---|---|---|---|---|
| C[N+](Cc1ccccc1)(C[C@H](O)[C@H](Cc1ccccc1)NC(=O)OCC1CCOC1)/N=C(\[O-])c1ccccc1 | - | HPLC | IC50 | - | 185 µM |
| CC(C)(C)OC(=O)N1C2C3(CO)C(c4ccccc4)C4(CO)C1C1(CO)C(c5ccccc5)C2(CO)C3N(C(=O)OC(C)(C)C)C41 | - | - | IC50 | - | ~25 µM |
| CCCCCC(=O)O[C@@H]1C[C@]2(C)[C@H]3CC=C4[C@@H]5CC(C)(C)CC[C@]5(C(=O)O)CC[C@@]4(C)[C@]3(C)CC[C@H]2C(C)(C)[C@H]1OC(=O)CCCCC | - | FRET | IC50 | - | >1200 µg/mL |
| COC(=O)[C@@H](NC(=O)[C@@H](NC(=O)CNC[C@H](O)[C@H](Cc1ccccc1)NC(=O)[C@H](C)NC(=O)[C@H](C)N)C(C)C)C(C)C | IIIB | - | Ki | - | 0.004 µM |
| COC(=O)[C@@H](NC(=O)[C@@H](NC(=O)[C@H](C)C[C@H](O)[C@H](Cc1ccccc1)NC(=O)[C@H](C)NC(=O)[C@H](C)NC(=O)OCc1ccccc1)C(C)C)C(C)C | - | HPLC | Ki | - | 0.0007 µM |
| CC1(C)CC[C@]2(C(=O)OCc3ccccc3)CC[C@]3(C)C(=CC[C@@H]4[C@@]5(C)CC[C@H](OC(=O)CCC(=O)O)C(C)(C)[C@@H]5CC[C@]43C)[C@@H]2C1 | - | FRET | IC50 | - | >1200 µg/mL |
| CC(C)(C)NC(=O)[C@H]1N(C(=O)[C@@H](O)[C@H](Cc2ccccc2)NC(=O)[C@H](CC(N)=O)NC(=O)COc2cccc3cccnc23)CSC1(C)C | - | - | IC50 | - | ~0.05 µM |
| CCC(=O)O[C@@H]1C[C@]2(C)[C@H]3CC=C4[C@@H]5CC(C)(C)CC[C@]5(C(=O)O)CC[C@@]4(C)[C@]3(C)CC[C@H]2C(C)(C)[C@H]1O | - | FRET | IC50 | - | >1200 µg/mL |
| N[C@@H](Cc1ccccc1)C(=O)Cc1ccccc1 | - | substrate cleavage | IC50 | - | 550 µM |
| CC(C)(C)NC(=O)[C@@H]1C[C@@H](O)CCN1C(=O)[C@@H](O)[C@H](Cc1ccccc1)NC(=O)[C@H](CC(N)=O)NC(=O)OCc1ccccc1 | - | - | IC50 | - | <5 µM |
| COc1ccc(C2C3(CO)C4N(C(C)=O)C5C2(CO)C2N(C(C)=O)C3C4(CO)C(c3ccc(OC)cc3)C52CO)cc1 | - | - | IC50 | - | >25 µM |
| CC(C)(C)OC(=O)N[C@@H](Cc1ccccc1)[C@@H](O)C[N+](C)(Cc1ccccc1)/N=C(\[O-])c1ccc(N)cc1 | - | HPLC | IC50 | - | 45 µM |
| CC1(C)CC[C@]2(C(=O)OCc3ccccc3)CC[C@]3(C)C(=CC[C@@H]4[C@@]5(C)C[C@@H](OC(=O)CCCC(=O)O)[C@H](O)C(C)(C)[C@@H]5CC[C@]43C)[C@@H]2C1 | - | FRET | IC50 | - | >1200 µg/mL |
| COC(=O)[C@@H](NC(=O)[C@@H](NC(=O)CC[C@H](O)[C@H](Cc1ccccc1)NC(=O)[C@H](C)NC(=O)[C@H](C)N)C(C)C)C(C)C | - | HPLC | Ki | - | 0.004 µM |
| COC(=O)N1C2C3(CO)C(c4ccccc4)C4(CO)C1C1(CO)C(c5ccccc5)C2(CO)C3N(C(=O)OC)C41 | - | - | IC50 | - | >50 µM |
| CC(C)(C)NC(=O)[C@@H]1C=C(c2ccccc2)CN1C(=O)[C@@H](O)[C@H](Cc1ccccc1)NC(=O)[C@H](CC(N)=O)NC(=O)OCc1ccccc1 | - | - | IC50 | - | ~0.05 µM |
| COC(=O)[C@@H](NC(=O)[C@@H](NC(=O)[C@@H](C[C@H](O)[C@H](Cc1ccccc1)NC(=O)[C@H](C)NC(=O)OCc1ccccc1)C(C)C)C(C)C)C(C)C | - | HPLC | Ki | pH 6.0 | 0.0009 µM |
| CS(=O)(=O)C[C@H](NC(=O)COc1cccc2ccccc12)C(=O)N[C@@H](Cc1ccccc1)[C@H](O)C(=O)N1CCC[C@H]1C(=O)Nc1cccc(O)c1 | - | - | IC50 | - | >0.05 µM |
| COc1ccc(C2C3(CO)C4N(C(=O)Oc5ccccc5)C5C2(CO)C2N(C(=O)Oc6ccccc6)C3C4(CO)C(c3ccc(OC)cc3)C52CO)cc1 | - | - | IC50 | - | >50 µM |
| CC1(C)CC[C@]2(C(=O)OCc3ccccc3)CC[C@]3(C)C(=CC[C@@H]4[C@@]5(C)CC[C@H](OC(=O)c6ccccc6)C(C)(C)[C@@H]5CC[C@]43C)[C@@H]2C1 | - | FRET | IC50 | - | >1200 µg/mL |
| O=C(Cc1ccccc1)N1C2C3(CO)C(c4ccccc4)C4(CO)C1C1(CO)C(c5ccccc5)C2(CO)C3N(C(=O)Cc2ccccc2)C41 | - | - | IC50 | - | ~50 µM |
| CCC(=O)O[C@@H]1C[C@]2(C)[C@H]3CC=C4[C@@H]5CC(C)(C)CC[C@]5(C(=O)O)CC[C@@]4(C)[C@]3(C)CC[C@H]2C(C)(C)[C@H]1OC(=O)CC | - | FRET | IC50 | - | >1200 µg/mL |
| CC(C)(C)OC(=O)N[C@H](Cc1ccccc1)/C(O)=C(\C#N)c1c(F)c(F)c(F)c(F)c1F | - | HPLC | Ki | - | 1.49 µM |
| CC1(C)CC[C@]2(C(=O)OCc3ccccc3)CC[C@]3(C)C(=CC[C@@H]4[C@@]5(C)C[C@@H](OC(=O)c6ccccc6)[C@H](O)C(C)(C)[C@@H]5CC[C@]43C)[C@@H]2C1 | - | FRET | IC50 | - | >1200 µg/mL |
| COC(=O)[C@@H]1CCCN1C(=O)C(=O)C(Cc1ccccc1)NC(=O)OC(C)(C)C | - | substrate cleavage | Ki | - | 6 µM |
| CC[C@@H](C)[C@H](NC(=O)[C@@H]1CCCN1C(=O)[C@@H](O)[C@H](CC1CCCCC1)NC(=O)[C@H](CC(N)=O)NC(=O)c1cnccn1)C(=O)N[C@H](C(N)=O)C(C)C | - | - | IC50 | - | <5 µM |
| CC(C)N(CC(=O)N(CC(=O)NC[C@@]1(O)C2C3C4C2[C@@](O)(CNC(=O)CN(Cc2ccccc2)C(=O)CN(C(=O)CN(C)C(=O)OCc2ccccc2)C(C)C)C2C1[C@H]3C[C@H]42)Cc1ccccc1)C(=O)CN(C)C(=O)OCc1ccccc1 | - | substrate cleavage | IC50 | - | 0.075 µM |
| CC(=O)O[C@@H]1C[C@]2(C)[C@H]3CC=C4[C@@H]5CC(C)(C)CC[C@]5(C(=O)O)CC[C@@]4(C)[C@]3(C)CC[C@H]2C(C)(C)[C@H]1O | - | FRET | IC50 | - | >1200 µg/mL |
| CC(C)(C)OC(=O)N[C@@H](Cc1ccccc1)[C@@H](O)C[N+](C)(Cc1ccccc1)/N=C(\[O-])C1CC1 | - | HPLC | IC50 | - | 3 µM |
| CC(C)N(CC(=O)N(CC(=O)NC[C@]1(O)C2C3C4C2[C@](O)(CC(N)=O)C2C1[C@@H]3C[C@@H]42)Cc1ccccc1)C(=O)CN(C)C(=O)OCc1ccccc1 | - | substrate cleavage | IC50 | - | 0.5 µM |

The last 2 rows once more:

{"SMILES": "CC(C)(C)OC(=O)N[C@@H](Cc1ccccc1)[C@@H](O)C[N+](C)(Cc1ccccc1)/N=C(\\[O-])C1CC1", "method": "HPLC", "read-out": "IC50", "value": "3 µM"}
{"SMILES": "CC(C)N(CC(=O)N(CC(=O)NC[C@]1(O)C2C3C4C2[C@](O)(CC(N)=O)C2C1[C@@H]3C[C@@H]42)Cc1ccccc1)C(=O)CN(C)C(=O)OCc1ccccc1", "method": "substrate cleavage", "read-out": "IC50", "value": "0.5 µM"}

Conditions beyond the fields shown may differ between rows. Blank or dashed fields: not listed here.